Values of other authors as cited in US20020035738A1, “Plant protection method” (priority 1996, published 2002).

Tested on: Phytophthora infestans
Details: in vivo; cited from earlier work

CC/C=C\C[C@H]1C(=O)CC[C@@H]1CC(=O)O [jasmonic acid]
resistance against the late blight fungus Phytophthora infestans: induces resistance
